Results of unrelated studies side by side (data: NIAID ChemDB).

All rows: toxicity to cultured cells; cell line: MDBK; endpoint: CC50

Rows are shuffled and stem from different studies.

compound	read by	value
CC1(C)C2CCC(N3C[C@H](O)[C@@H](O)[C@H](O)[C@H]3CO)C1C2		>1000 µM
CC(C)OC(=O)[C@H](C)N[P@](=O)(OC[C@H]1O[C@@](C#N)(c2ccc3c(N)ncnn23)[C@](C)(O)[C@@H]1OC(=O)C(C)C)Oc1ccccc1	ATP	>30 µM
Nc1nc(Cl)cc2c1ncn2[C@@H]1O[C@H](CO)C[C@H]1O		<50 µM
NC(=O)c1ncn([C@@H]2O[C@H](CO)[C@@H](O)[C@H]2O)n1	MTT	5 µM
CCc1nc(N)nc(N)c1-c1ccc(Cl)cc1		338 µg/mL
CCCC(=O)O[C@H]1CN2CC[C@H](O)[C@@H]2[C@@H](O)[C@@H]1O	XTT	>300 µM
COc1c(C)c2c(c(O)c1C/C=C(\C)COP(=O)(O)CP(=O)(O)OC[C@H]1O[C@@H](n3cnc4c(N)ncnc43)[C@H](O)[C@@H]1O)C(=O)OC2		>100 µM
CC(C)(C)CCCCCCCN1C[C@H](O)[C@@H](O)[C@H](O)[C@H]1CO		500 µM
OC[C@@H]1CC[C@H](n2cnc3c(NC4CCCCCC4)ncnc32)O1		244 µM
COCCCCCCCCCN1C[C@H](O)[C@@H](O)[C@H](O)[C@H]1CO		>2000 µM
C=C1[C@H](CO)[C@@H](O)C[C@@H]1n1cnc2c(=O)[nH]c(N)nc21		78 µM
Nc1cc(Cl)nc2c1ncn2[C@H]1C[C@H](O)[C@@H](CO)O1		105 µM
Cc1ccc(C2=C3CS(=O)(=O)OCC3(C)OC2=O)cc1	MTT	>20 µM
OC[C@@H]1[C@@H](O)[C@H](O)[C@@H](O)CN1CCCCC1CCCCC1		400 µM
COc1cc(O)c(CC=C(C)C)c2c1C(=O)CC(c1ccc(O)cc1)O2		2.5 µg/mL
COc1c(C)c2c(c(O)c1C/C=C(\C)CCCO)C(=O)OC2		60 µM
CCCCN1C[C@H](O)[C@@H](O)[C@H](O)[C@H]1CO	XTT	>1000 µM
Nc1nc2c(ncn2COC(CO)CO)c(=O)[nH]1		<50 µM
NC(=O)C1=CSN([C@@H]2O[C@H](COP(=O)([O-])OP(=O)([O-])OCC3OC(n4cnc5c(N)ncnc54)C(F)C3O)[C@@H](O)[C@H]2O)N1		>100 µM
COC(=O)N[C@H](C(=O)N1CCC[C@H]1c1nc2ccc(-c3csc4c(-c5ccc(-c6cnc([C@@H]7CCCN7C(=O)[C@H](NC(=O)OC)c7ccccc7)[nH]6)cc5)csc34)cc2[nH]1)C(C)C	resazurin	>50 µM
Nc1ccnc2c1ncn2[C@@H]1O[C@H](CO)C[C@H]1O		260 µM
Cn1cnc([N+](=O)[O-])c1Sc1ncnc2nc[nH]c12		>40 µM
CC12COS(=O)(=O)CC1=C(c1ccc(Cl)cc1)C(=O)O2	MTT	>20 µM
COc1c(C)c2c(c(O)c1C/C=C(\C)CO)C(=O)OC2		>100 µM
OC[C@H]1O[C@@H](n2cnc3c(NC4CC4)nc(Cl)nc32)C[C@@H]1O		<50 µM
NC(=O)c1ncn([C@@H]2O[C@H](CO)[C@@H](O)[C@H]2O)c1O		50.1 µM

Repeating the first 2 entries:

compound,read by,value
CC1(C)C2CCC(N3C[C@H](O)[C@@H](O)[C@H](O)[C@H]3CO)C1C2,,>1000 µM
CC(C)OC(=O)[C@H](C)N[P@](=O)(OC[C@H]1O[C@@](C#N)(c2ccc3c(N)ncnn23)[C@](C)(O)[C@@H]1OC(=O)C(C)C)Oc1ccccc1,ATP,>30 µM

Blank or dashed fields: not listed here. CCn: concentration that lowers growth or viability of the cells by n%.